Construct, isoform or probe ends are uncertain for at least one entry. Protein sequences can lack the tags named with them.

The text below walks through data of US20090221468.

This data set deals with T1, GST-HsORC2 (origin recognition complex subunit 2) (Homo sapiens) (UniProt Q13416).
T1 sequence (looked up, limits assumed): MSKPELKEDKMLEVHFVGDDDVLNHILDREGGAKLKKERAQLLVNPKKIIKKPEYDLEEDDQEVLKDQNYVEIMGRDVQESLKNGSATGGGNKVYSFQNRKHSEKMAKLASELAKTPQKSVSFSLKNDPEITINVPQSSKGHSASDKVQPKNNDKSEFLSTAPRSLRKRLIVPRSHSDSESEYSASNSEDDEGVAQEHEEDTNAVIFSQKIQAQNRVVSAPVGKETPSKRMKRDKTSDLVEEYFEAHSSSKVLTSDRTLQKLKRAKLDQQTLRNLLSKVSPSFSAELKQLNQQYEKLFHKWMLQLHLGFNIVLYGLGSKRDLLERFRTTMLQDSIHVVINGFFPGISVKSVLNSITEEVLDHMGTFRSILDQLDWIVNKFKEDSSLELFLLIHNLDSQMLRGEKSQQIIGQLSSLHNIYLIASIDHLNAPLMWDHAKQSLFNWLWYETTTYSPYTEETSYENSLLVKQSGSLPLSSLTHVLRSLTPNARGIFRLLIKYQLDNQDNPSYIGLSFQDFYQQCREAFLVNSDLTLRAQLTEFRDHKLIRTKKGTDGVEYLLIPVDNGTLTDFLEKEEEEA
Briefly: EMSA. The conditions noted are these: 5 mM MgCl2, 1 mM ATP, 70 mM KCl, poly(dI/dC), 25 C; supershift with anti-ORC2; specific cold competitor abolishes; purified recombinant protein; protein details: GST fusion, expressed in E. coli; label: 32P. A general note: Mobility shift assays separate free from complexed probe on a gel.

“AAAACTTTAAA (double strand) [ACS probe (11 bp ACS-like site plus 22 bp upstream)]”: the binding result is on record as “binds”.
